Values from PubChem BioAssay AID504761 (Drosophila RNAi Screening Center, 2011)

Screen: 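Fly genes whose silencing reduces dengue virus type 2 infection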 (primary screen)
Cells: D.Mel-2 cells from Drosophila
Reagents: long dsRNA against Drosophila genes
Conditions: infection with dengue virus type 2; dose and infection time not stated
Read-out: 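Per well on two replicate plates, imaging gave the percent of cells positive for viral envelope protein, ranked by infection, and a nuclear count of cells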
Direction: infection score: higher = more virus-infected cells; cell count: higher = more cells in the well
Rule for the call: 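Very low infection ranking in both replicate wells (chance probability at most 0.065), then a retest showing infection dropped 1.5-fold or more at p below 0.05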
Meaning of the calls: active = confirmed: knock-down lowers infection; inactive = not picked or not confirmed
In all, the deposit lists about 22,000 reagents; below is an unselected part of those with a known target gene and a result. Over the whole deposit, 116 (0.52%) are marked active. 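Calls depend on retest data that are not deposited; infection was ranked per plate without normalising between plates; the unit of the infection score is not given.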 Raw values are not corrected between plates. Entries without a mark were called inactive. A plus sign joins genes that one reagent is predicted to hit. Not stated in the record: the amount of reagent, the time to read-out.

predicted target	DRSC id	infection score, replicate 1	infection score, replicate 2	cell count, replicate 1	cell count, replicate 2
CG33017	DRSC06573	20.5	15.3	5722	4035
CG33017	DRSC06574	24.6	17.5	5062	6580
CG13575	DRSC04211	12.2	9.44	3852	6525
CG13575	DRSC22851	4	1.11	6456	6677
CG12817	DRSC14555	10.4	2	6298	6835
Cdc50	DRSC20224	40.6	14.2	6025	6654
CG5762	DRSC15869	3.04	3.15	6835	6258
CG14050	DRSC18594	4.09	4.44	6013	6561
PsGEF (retired record)	DRSC18600	2.71	11.9	6451	5276
CG14646	DRSC12232	8.59	17.2	6145	6417
CG14646	DRSC21316	0.53	3.44	6424	6358
Prip	DRSC07044	10.8	21.5	3731	5853
Prip	DRSC26459	3.22	2.98	6529	6541
Sfmbt	DRSC02552	5.98	1.8	6175	6330
Sfmbt	DRSC24312	2.56	4.58	6122	5830
Pex7	DRSC10651	4.5	1.35	5847	6505
CG13601	DRSC14604	5.16	8.29	6322	6450
Or42a	DRSC04912	5.05	15.2	6391	5621
bgcn	DRSC04062	6.03	7.38	6401	6652
bgcn	DRSC04063	3.04	23.8	6846	6678
CG13050	DRSC09931	0.85	0.63	5756	6152
Pex10	DRSC08599	5.81	12.6	5023	6552
Pex10	DRSC22021	13.5	6.92	6565	5603
org-1	DRSC22974	0.83	6.33	6288	6654
org-1	DRSC25771	4.46	2.11	5965	6154
sw	DRSC20388	2.82	5.24	5598	5630
mRpS31	DRSC10556	14.2	13.2	5645	5764
Ctr1B + Poxm	DRSC16245	13.9	6.38	6970	1349
CG3603	DRSC18317	2.31	0.53	5706	6172
Rsph9	DRSC01594	2.12	1.2	6189	6104
Rsph9	DRSC25908	5.84	10	5980	5915
Mst27D	DRSC00967	1.73	2.86	6116	6573
gcm	DRSC03536	26.1		6207	481
ACXE	DRSC00847	19.5	0.3	5227	661
hzg	DRSC23382	7.84	1.53	6352	6282
Fie	DRSC08158	7.06	7.59	5112	4336
CG14573	DRSC11734	2.87	6.82	6168	6156
CG14573	DRSC29094	16	13.4	4324	6045
CG7333	DRSC16229	2.74	4.13	6632	6313
CG9451	DRSC11074	3.63	1.57	6355	6418
CG9451	DRSC26098	15.9	8.25	5455	5781
scrib	DRSC13774	1.01	0.17	6042	6045
scrib	DRSC15809		3.19	105	6452
scrib	DRSC17051	3.11	1.59	5169	757
scrib	DRSC25196	4.06	5.98	6239	5870
CG16739	DRSC06621	2.18	2.88	6324	6176
Br140	DRSC06755	4.18	21.8	7137	6067
Slip1	DRSC17146	2.44	13.6	6270	6707
CG13640	DRSC14639			354	301
CG15056	DRSC19630	17.2	3.36	5588	6005
NC2beta	DRSC01895	13.6	5.74	6039	5782
NC2beta	DRSC25346	1.58	1.78	6124	6342
ninaA	DRSC00830	5.72	3.48	6256	6902
CG10559	DRSC14255	1.51	5.8	6886	2912
CG10559	DRSC29876	13.1	10.8	5088	5739
CG9922	DRSC16579	4.32	9.09	5486	6610
CG9922	DRSC29719	9.68	2.3	6330	6183
CG17597	DRSC02630	19.5	10.4	6468	6232
CG17597	DRSC24788	8.91	9.26	6093	6164

As entered above.
CG9922 [DRSC29719], infection score, replicate 2 → 2.3
For “cell count, replicate 2”, ACXE [DRSC00847] shows 661
For “cell count, replicate 2”, hzg [DRSC23382] shows 6282
Entry for Sfmbt [DRSC02552] under “cell count, replicate 1”: 6175
Value for bgcn [DRSC04063] in “cell count, replicate 2”: 6678
scrib [DRSC25196], infection score, replicate 2 = 5.98
